{"source": "PubChem BioAssay AID624099 (ICCB-Longwood, 2012)", "purpose": "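Host factors E2 relies on to silence an HPV18 LCR reporter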 (primary screen)", "cell system": "human C33A cervical carcinoma cells (HPV-negative) stably expressing BPV1 E2 and an HPV18 LCR luciferase reporter", "knock-down reagent": "siRNA pool against human genes, 40 nM", "duration": "72 h", "read-out": "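Per-well luciferase luminescence, z-scored on each plate against the plate mean and SD with control wells left out, then averaged across three replicate plates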", "reading the numbers": "mean z-score and z-score: higher = stronger reporter signal, weaker E2 silencing", "rule for the call": "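Mean z ≥ 2 together with z ≥ 2 in two or more of the three replicates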", "note": "The deposit covers about 21,000 reagents; shown is a random part of them. In the full data, 497 (2.4%) were called active. 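Higher z means weaker E2 silencing; only reporter increases were scored, and knock-downs that hurt cell survival may mask genuine repressor factors.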 Entries without a mark were called inactive. No sequences are given here."}
{"Target gene": "SPIDR (scaffold protein involved in DNA repair)", "mean z-score": -0.52, "z-score, replicate A": -0.94, "z-score, replicate B": -0.38, "z-score, replicate C": -0.23}
{"Target gene": "PARP8 (poly(ADP-ribose) polymerase family member 8)", "mean z-score": -0.05, "z-score, replicate A": -0.01, "z-score, replicate B": -0.32, "z-score, replicate C": 0.17}
{"Target gene": "ANP32E (acidic nuclear phosphoprotein 32 family member E)", "mean z-score": -0.26, "z-score, replicate A": 0, "z-score, replicate B": -0.06, "z-score, replicate C": -0.72}
{"Target gene": "KHDC4 (KH domain containing 4, pre-mRNA splicing factor)", "mean z-score": -1.1, "z-score, replicate A": -1.25, "z-score, replicate B": -1.11, "z-score, replicate C": -0.93}
{"Target gene": "LINC01622 (long independently transcribed non-coding RNA 1622)", "mean z-score": -0.01, "z-score, replicate A": 0.09, "z-score, replicate B": -0.04, "z-score, replicate C": -0.09}
{"Target gene": "ZNF543 (zinc finger protein 543)", "mean z-score": -1.02, "z-score, replicate A": -1.19, "z-score, replicate B": -1.11, "z-score, replicate C": -0.75}
{"Target gene": "SERPINB9 (serpin family B member 9)", "mean z-score": -0.73, "z-score, replicate A": -0.79, "z-score, replicate B": -0.77, "z-score, replicate C": -0.62}
{"Target gene": "CORO1B (coronin 1B)", "mean z-score": -1.59, "z-score, replicate A": -1.72, "z-score, replicate B": -1.48, "z-score, replicate C": -1.57}

2 entries from above, ordered by “z-score, replicate A”, descending:
{"Target gene": "ANP32E (acidic nuclear phosphoprotein 32 family member E)", "mean z-score": -0.26, "z-score, replicate A": 0, "z-score, replicate B": -0.06, "z-score, replicate C": -0.72}
{"Target gene": "KHDC4 (KH domain containing 4, pre-mRNA splicing factor)", "mean z-score": -1.1, "z-score, replicate A": -1.25, "z-score, replicate B": -1.11, "z-score, replicate C": -0.93}

The listing continues.
{"Target gene": "PKD1", "mean z-score": -0.43, "z-score, replicate A": -0.1, "z-score, replicate B": -0.32, "z-score, replicate C": -0.87}
{"Target gene": "PP13004 (retired record)", "mean z-score": -1.2, "z-score, replicate A": -1.54, "z-score, replicate B": -1.15, "z-score, replicate C": -0.9}
{"Target gene": "RPS15 (ribosomal protein S15)", "mean z-score": -1.92, "z-score, replicate A": -2.01, "z-score, replicate B": -1.96, "z-score, replicate C": -1.78}
{"Target gene": "LOC401322 (retired record)", "mean z-score": -0.77, "z-score, replicate A": -0.72, "z-score, replicate B": -0.8, "z-score, replicate C": -0.79}
{"Target gene": "MIA3 (MIA SH3 domain ER export factor 3)", "mean z-score": 0.64, "z-score, replicate A": 1.08, "z-score, replicate B": 0.46, "z-score, replicate C": 0.39}
{"Target gene": "EYA4 (EYA transcriptional coactivator and phosphatase 4)", "mean z-score": 1.07, "z-score, replicate A": 1.01, "z-score, replicate B": 1.06, "z-score, replicate C": 1.13}
{"Target gene": "MOBP (myelin associated oligodendrocyte basic protein)", "mean z-score": 0.94, "z-score, replicate A": 0.78, "z-score, replicate B": 1.09, "z-score, replicate C": 0.94}
{"Target gene": "GFRA1 (GDNF family receptor alpha 1)", "mean z-score": 1.1, "z-score, replicate A": 1.15, "z-score, replicate B": 1.04, "z-score, replicate C": 1.12}
{"Target gene": "SYTL2 (synaptotagmin like 2)", "mean z-score": -0.26, "z-score, replicate A": -0.31, "z-score, replicate B": -0.51, "z-score, replicate C": 0.05}
{"Target gene": "CD320 (CD320 molecule)", "mean z-score": -0.69, "z-score, replicate A": -0.88, "z-score, replicate B": -0.44, "z-score, replicate C": -0.77}
{"Target gene": "LOC387632 (retired record)", "mean z-score": -0.32, "z-score, replicate A": -0.06, "z-score, replicate B": -0.6, "z-score, replicate C": -0.3}
{"Target gene": "LINC01118 (long independently transcribed non-coding RNA 1118)", "mean z-score": 0.09, "z-score, replicate A": -0.09, "z-score, replicate B": 0.07, "z-score, replicate C": 0.28}
{"Target gene": "SEZ6L (seizure related 6 homolog like)", "mean z-score": 1.04, "z-score, replicate A": 0.86, "z-score, replicate B": 1.01, "z-score, replicate C": 1.24}
